PubChem BioAssay AID504761 | Drosophila RNAi Screening Center | 2011
In all, the deposit lists about 22,000 reagents; this is a random part of those that have a named target and a result. In the full data, 116 (0.52%) were called active. 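Calls depend on retest data that are not deposited; infection was ranked per plate without normalising between plates; the unit of the infection score is not given.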 The raw values are shown without normalisation. The numbers tell different reagents against one gene apart. A plus sign joins genes that one reagent is predicted to hit. The record does not give: the amount of reagent, the time to read-out.

- Assay: 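Insect host genes that dengue virus relies on to spread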 (primary screen)
- Cells: D.Mel-2 cells from Drosophila
- Reagent: long dsRNA against Drosophila genes
- Treatment: infection with dengue virus type 2; dose and infection time not stated
- Measured: 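Cells stained for dengue envelope protein and imaged; percent of infected cells per well on duplicate plates, ranked by infection, with stained nuclei counted for cell number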
- Reading the numbers: infection score: higher = more virus-infected cells; cell count: higher = more cells in the well
- Hit rule: 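Very low infection ranking in both replicate wells (chance probability at most 0.065), then a retest showing infection dropped 1.5-fold or more at p below 0.05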
- Meaning of the calls: active = confirmed: knock-down lowers infection; inactive = not picked or not confirmed

target gene	reagent	infection score, replicate 1	infection score, replicate 2	cell count, replicate 1	cell count, replicate 2	activity call
Obp56f (Odorant-binding protein 56f)	1	5.31	6.78	6435	6428	inactive
CG15414	1	3.3	3.34	6306	6256	inactive
CG15414	2	5.79	4.46	6233	6809	inactive
CG15414	3	16.7	10.5	5123	3373	inactive
Tsf2 (Transferrin 2)	1	8.1	1.92	6396	6629	inactive
CG33966	1	3.16	0.42	5863	6235	inactive
CG33966	2	19.7	17.6	6054	6011	inactive
Rrp42	1	5.45	11.9	5874	5673	inactive
CG8852	1	7.49	1.54	6504	6094	inactive
CG8852	2	1.9	2.68	6115	5789	inactive
ND-B14 (NADH dehydrogenase (ubiquinone) B14 subunit)	1	21.5	8.79	5433	6430	inactive
ND-B14 (NADH dehydrogenase (ubiquinone) B14 subunit)	2	22.1	23.1	4644	5037	inactive
vas (retired record)	1	5.66	7.92	7188	2324	inactive
Hpd (4-hydroxyphenylpyruvate dioxygenase)	1	9.19	28.7	1295	4488	inactive
Hpd (4-hydroxyphenylpyruvate dioxygenase)	2	2.37	4.5	6589	6327	inactive
CG9864	1	2.42	1.3	6288	6461	inactive
CG9864	2			242	338	inactive
Pih1D1 (PIH1 domain containing 1)	1	5.55	3.6	6780	6302	inactive
Pih1D1 (PIH1 domain containing 1)	2	5.7	6.72	2651	1042	inactive
RpS30 (Ribosomal protein S30)	1	6.95	5.56	1711	2411	inactive
RpS30 (Ribosomal protein S30)	2	4.65	6.33	1937	2512	inactive
Dbp45A (DEAD box protein 45A)	1	11.1	1.81	5918	6195	inactive
Mad	1	5.12	8.2	6504	6588	inactive
Hexim (Hexamethylene bisacetamide inducible)	1	6.93	6.38	6350	6552	inactive
CG42808 + CG42807	1	13.2	5.29	5860	6158	inactive
CG42808 + CG42807	2	14	6.11	5745	6191	inactive
Qsox1 (Quiescin sulfhydryl oxidase 1)	1	2.34	6.66	6400	6536	inactive
Qsox1 (Quiescin sulfhydryl oxidase 1)	2	6.78	11.6	6016	5644	inactive
CG3909	1	5.21	1.68	6239	6316	inactive
CG12209	1	5.63	12.8	1865	5729	inactive
CG9825	1	8.65	9.92	6831	6555	inactive
CG9825	2	14.9	22	4813	5140	inactive
CG32264	1	0.33	1.02	5141	3223	inactive
CG32264	2	0.9	0.83	6028	6156	inactive
CG32264	3	7.92	0.22	3548	445	inactive
CG32264	4	0.39	2.46	6672	6168	inactive
CG32264	5	2.45	1.78	6122	6405	inactive

In a second layout: entries from further up.
CG15414 #2
- infection score, replicate 1: 5.79
- infection score, replicate 2: 4.46
- cell count, replicate 1: 6233
- cell count, replicate 2: 6809
- activity call: inactive

CG15414 #3
- infection score, replicate 1: 16.7
- infection score, replicate 2: 10.5
- cell count, replicate 1: 5123
- cell count, replicate 2: 3373
- activity call: inactive

Tsf2 (Transferrin 2)
- infection score, replicate 1: 8.1
- infection score, replicate 2: 1.92
- cell count, replicate 1: 6396
- cell count, replicate 2: 6629
- activity call: inactive

More entries:
target gene	reagent	infection score, replicate 1	infection score, replicate 2	cell count, replicate 1	cell count, replicate 2	activity call
how (held out wings)	1	1.23	1.53	6525	6197	inactive
CG13482	1	9.66	9.59	6480	6184	inactive
CG13482	2	32.9	17.5	5417	5933	inactive
Grl65a (Gustatory receptor-like 65a)	1	1.36	1.1	5861	6156	inactive
Grl65a (Gustatory receptor-like 65a)	2	4.47	10.7	7085	5916	inactive
CAH1 + Adat1	1	26.4	29.4	2186	4706	inactive
RpL40 (Ribosomal protein L40)	1	2.21	6.77	6641	6589	inactive
Ccp84Ag	1	8.92	13.5	5863	5956	inactive
Ccp84Ag	2	4.5	4.29	6726	6130	inactive
Ccp84Ag	3	3.82	10	6643	5766	inactive
CG15435	1	2.8	4.28	6892	7153	inactive
CG15435	2	6.38	3.84	6381	6436	inactive
RfC3 (Replication factor C subunit 3)	1	13.7	3.27	4925	581	inactive
RpL28 + snoRNA:Me28S-C3351	1	8.44	8.75	3920	5336	inactive
Ets96B	1	3.45	2.29	1711	654	inactive
Ets96B	2	20.4	14.1	4976	3186	inactive
CG14491	1	13	11.8	6808	5989	inactive
CG14491	2	18.4	21.1	6254	3696	inactive
tsu (tsunagi)	1	2.28	5.55	6531	6124	inactive
Dred (Dctn1-related)	1	4.52	4.63	5952	6270	inactive
Dred (Dctn1-related)	2	15.2	5.54	1803	6716	inactive
